Measured values from several laboratories, pooled; numbers as filed in NIAID ChemDB.

Common to all: target-level tests; species: HIV-1; target: Reverse transcriptase; endpoint: IC50

An empty or dashed field is not shown. ICn is the concentration giving n% inhibition. Neighbouring rows are from separate reports.

| SMILES | strain | mutations | method | result |
|---|---|---|---|---|
| COc1cc(-c2ccc(N=Nc3ccc4c(S(=O)(=O)O)cc(S(=O)(=O)O)c(N)c4c3O)c(OC)c2)ccc1N=Nc1ccc2c(S(=O)(=O)O)cc(S(=O)(=O)O)c(N)c2c1O | RF |  | RT activity | 6.1 µM |
| CCN1c2ncc(CCOc3cccc4c3ccc[n+]4[O-])cc2C(=O)N(C)c2ccc(Cl)nc21 |  | RT-Y188L | nucleotide incorporation / radiometric | 0.439 µM |
| O=C1c2ccccc2S[C@@H]2[C@H](O)[C@@H](O)[C@@H](O)[C@H](O)CN12 |  |  | RT activity / absorbance | 5.51 µM |
| COc1ccccc1CCNC(=S)Nc1ccccn1 |  |  | radiometric | 1 µM |
| Cc1cn(C2CC(N=[N+]=[N-])C(COC(C(=O)O)P(=O)(O)OP(=O)(O)O)O2)c(=O)[nH]c1=O |  |  | nucleotide incorporation / radiometric | 109 µg/mL |
| CCN1c2ncc(CCOc3ccc(-c4ccc(C(=O)O)o4)cc3C)cc2C(=O)N(C)c2cccnc21 | IIIB | RT-K103N Y181C | nucleotide incorporation / radiometric | >0.1 µM |
| O=C(Nc1ccc2c(O)c(N=Nc3ccc(C(=O)O)cc3)c(S(=O)(=O)O)cc2c1)Nc1ccc2c(O)c(N=Nc3ccc(C(=O)O)cc3)c(S(=O)(=O)O)cc2c1 |  |  | nucleotide incorporation | 0.316 µM |
| CN(CC(=O)Nc1ccc(Br)cc1C(=O)O)CC(=O)Nc1ccc(Br)cc1C(=O)O |  |  |  | >100 µg/mL |
| O=C1c2ccccc2S[C@H]2[C@H](O)[C@@H](O)[C@@H](O)[C@H](O)CN12 |  |  | RT activity / absorbance | 2.73 µM |
| O=C(CCCCC(=O)Nc1ccccc1C(=O)O)Nc1ccccc1 |  |  |  | >100 µg/mL |
| O=C1Cc2ccc(-c3ccco3)cc2C(=O)N1O |  |  | RT activity / nucleotide incorporation / absorbance | 2.6 µM |
| N#Cc1cnc2c(Cl)cccc2c1Nc1cccc(F)c1 |  |  | RT activity / fluorescence | ≤10 µM |
| CCCCCC/C=C/CCCCCCCCCc1cccc(O)c1 |  |  | RT activity / nucleotide incorporation | >100 µM |
| Cc1[nH]c2ccccc2c1S(=O)(=O)c1ccc(Cl)cc1 |  | K103N | RT activity | >100 µM |
| CO.S=C([N-]c1ccc(Br)cn1)NCCc1ccccc1Cl.S=C([N-]c1ccc(Br)cn1)NCCc1ccccc1Cl.[O]=[V+2] |  |  | radiometric | 2.1 µM |
| O=S(=O)(c1ccccc1)c1c[nH]c2ccccc12 |  | WT | RT activity | 48 µM |
| CCN1c2ncc(CCOc3ccc(NC(=O)CC4(C(=O)O)CCCC4)cc3C)cc2C(=O)N(C)c2cccnc21 | IIIB |  | nucleotide incorporation / radiometric | <0.05 µM |
| O=C1CS[C@H]2[C@H](O)[C@@H](O)[C@H](O)[C@H](O)CN12 |  |  | RT activity / absorbance | 4.49 µM |
| Nc1ncnc2c1ncn2[C@@H]1O[C@H](CO)C=C1F |  |  |  | 0.4 µM |
| COC(=O)c1cc(O)c(O)c(O)c1 |  |  | ELISA | 80.1 µM |
| O=C(c1c(O)cc(O)cc1O)c1c(-c2ccc(O)cc2)oc2cc(O)c3c(c12)O[C@H](c1ccc(O)cc1)[C@@H](O)C3 | IIIB |  |  | >1000 µg/mL |
| Cc1cn([C@H]2C[C@H](N=[N+]=[N-])[C@@H](COP(=O)(O)OP(=O)(O)C(F)(F)P(=O)(O)N=[N+]=[N-])O2)c(=O)[nH]c1=O |  |  | fluorescence | >0.5 µM |
| CCN1c2ncc(CCOc3ccc(-c4cc(Cl)c(C(=O)O)cc4F)cc3C)cc2C(=O)N(C)c2cccnc21 | IIIB |  | nucleotide incorporation / radiometric | <0.05 µM |
| Cc1cc(C)cc(S(=O)(=O)c2[nH]c3ccccc3c2-c2cccc([N+](=O)[O-])c2)c1 |  | WT | RT activity | 20 µM |
| COC(=O)C(OCC1OC(n2cc(C)c(=O)[nH]c2=O)CC1N=[N+]=[N-])P(=O)(O)OP(=O)(O)O |  |  | nucleotide incorporation / radiometric | 141 µg/mL |
| O=C1c2ccccc2S[C@@H]2[C@H](O)[C@@H](O)[C@H](O)[C@H](O)CN12 |  |  | RT activity / absorbance | 3.44 µM |
| O=C1c2ccccc2C(=O)c2c1ccc1[nH]c(CNCCN3[C@@H](CO)[C@@H](O)[C@H](O)[C@@H]3CO)nc21 |  |  | RT activity / absorbance | 24.54 µM |
| N#Cc1cnc2c(Cl)cccc2c1Nc1cccc(Br)c1 |  |  | RT activity / fluorescence | ≤10 µM |
| N#Cc1cc(Cl)cc(C(=O)c2cc(Cl)ccc2OCc2[nH]nc3ncccc23)c1 |  |  | scintillation proximity / radiometric | 0.0244 µM |
| CCN1c2ncc(CCOc3ccc(-c4nc(C(=O)O)cs4)cc3)cc2C(=O)N(C)c2cccnc21 | IIIB | RT-K103N Y181C | nucleotide incorporation / radiometric | >0.1 µM |
| CCCCCC/C=C/CCCCCCCc1cccc(O)c1C(=O)O |  |  | RT activity / nucleotide incorporation | >100 µM |
| N#Cc1cnc2c(Cl)cccc2c1Nc1ccccc1 |  |  | RT activity / fluorescence | ≤12 µM |
| Nc1ncnc2c1ncn2[C@H]1CC[C@@H](COP(=O)(O)OP(=O)(O)OP(=O)(O)O)O1 |  | RT-K65R | nucleotide incorporation | >100 µM |
| N#Cc1cnc2c(Cl)cccc2c1Nc1ccc(Br)cc1 |  |  | RT activity / fluorescence | ≤12 µM |
| O=C1c2ccccc2C(=O)c2c1ccc1[nH]c([C@H]3NC[C@@H](O)[C@H]3O)nc21 |  |  | RT activity / absorbance | 40.86 µM |
| C=C(c1cc(OC)cc(OC)c1)c1c(C)c(=O)[nH]c(=O)n1COCc1ccccc1 |  |  | RT activity / fluorescence | 49.41 µM |
| O=C(Nc1ccc(Br)cc1C(=O)O)c1cccc(C(=O)Nc2ccc(Br)cc2C(=O)O)n1 |  |  |  | >100 µg/mL |
| Nc1ccn([C@H]2CC[C@@H](COP(=O)(O)OP(=O)(O)OP(=O)(O)O)O2)c(=O)n1 | IIIB |  |  | 0.3 µg/mL |
| Cc1cc(C)cc(S(=O)(=O)n2cc(-c3cccc([N+](=O)[O-])c3)c3ccccc32)c1 |  | Y181C | RT activity | 10 µM |
| N#Cc1cnc2c(Cl)cccc2c1Nc1ccc(Cl)cc1 |  |  | RT activity / fluorescence | ≤12 µM |
| CCN(CC)CCNc1nc(NCCCCNC(=O)CCCCC(=O)NCCCCNc2nc3c(c(NCCN(CC)CC)n2)CC=CC3)nc2c1CC=CC2 |  |  |  | >50 µM |
| N#Cc1cnc2c(F)cccc2c1Nc1cccc(F)c1 |  |  | RT activity / fluorescence | ≤12 µM |
| Cc1c(S(=O)(=O)c2ccc(C(C)(C)C)cc2)[nH]c2ccccc12 |  | K103N | RT activity | 87 µM |
| O=C1c2ccccc2C(=O)c2c1ccc1[nH]c(CNCCCCCCCCN3[C@@H](CO)[C@@H](O)[C@H](O)[C@@H]3CO)nc21 |  |  | RT activity / absorbance | 36.31 µM |
| N#Cc1cnc2c(Cl)cccc2c1Nc1cccc(Cl)c1 |  |  | RT activity / fluorescence | ≤12 µM |
| COC(=O)C(OCC1OC(n2cc(C)c(=O)[nH]c2=O)CC1N=[N+]=[N-])P(=O)(O)OP(=O)(O)OP(=O)(O)O |  |  | nucleotide incorporation / radiometric | 63 µg/mL |

For reference, 5 entries again:

SMILES | strain | mutations | method | result
CCN1c2ncc(CCOc3ccc(-c4cc(Cl)c(C(=O)O)cc4F)cc3C)cc2C(=O)N(C)c2cccnc21 | IIIB |  | nucleotide incorporation / radiometric | <0.05 µM
N#Cc1cnc2c(Cl)cccc2c1Nc1ccccc1 |  |  | RT activity / fluorescence | ≤12 µM
N#Cc1cnc2c(Cl)cccc2c1Nc1ccc(Cl)cc1 |  |  | RT activity / fluorescence | ≤12 µM
Cc1[nH]c2ccccc2c1S(=O)(=O)c1ccc(Cl)cc1 |  | K103N | RT activity | >100 µM
N#Cc1cnc2c(Cl)cccc2c1Nc1ccc(Br)cc1 |  |  | RT activity / fluorescence | ≤12 µM